The values below come from paper PMC10696396, “HilE represses the activity of the Salmonella virulence regulator HilD via a mechanism distinct from that of intestinal long-chain fatty acids” (The Journal of Biological Chemistry, 2023).

The target of this data set is T1, HilD (Salmonella enterica) (UniProt P0CL08).
T1 sequence (looked up, limits assumed): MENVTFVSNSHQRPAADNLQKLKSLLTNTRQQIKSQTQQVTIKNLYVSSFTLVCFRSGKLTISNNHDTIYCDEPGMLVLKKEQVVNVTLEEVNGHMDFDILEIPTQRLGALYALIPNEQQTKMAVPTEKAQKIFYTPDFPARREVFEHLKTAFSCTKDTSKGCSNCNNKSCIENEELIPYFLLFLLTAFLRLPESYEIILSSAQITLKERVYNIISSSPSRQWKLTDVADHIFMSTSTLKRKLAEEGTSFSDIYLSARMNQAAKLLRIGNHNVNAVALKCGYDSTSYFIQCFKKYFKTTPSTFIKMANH
In words: EMSA. Particulars: no fatty acid; recombinant protein; label: 5'-Cy5 on forward strand. In general terms: A gel shift assay detects complexes by their altered migration in electrophoresis.

The exact form of at least one protein or probe is not confirmed. At least one verdict rests on a figure or table, not on a statement of the authors. Where a protein sequence is shown, tags need not be part of it.

Regarding “GGGAGTAAAGAAAAGACGATATCATTATTTTGCAAAAAAATATAAAAATAAGCGCACCATTA (double strand) [hilA promoter A1 fragment, 62 bp]”, the binding result was “binds”.
